Data: US20190376053A1

Key:
[1] = biological target: mini-collagen peptide H-Gly-Pro-Arg-Gly-(Pro-Hyp-Gly)12-NH2; assay: SPR (Biacore), peptide immobilized, equilibrium fit, apparent KD
[2] = biological target: mini-collagen peptide H-Gly-Pro-Arg-Gly-(Pro-Hyp-Gly)12-NH2; assay: SPR (Biacore); ratio of KD, ColHS2bS3 = 1.00

Substance: CBD (s3) derived from the Clostridium histolyticum class II collagenase ColH (from UniProt Q46085 905-1021)
- Kd [1]: 752 µM
- Ratio [2]: 1.69
